Measured values as given in article PMC6920372, “SKP2 attenuates autophagy through Beclin1-ubiquitination and its inhibition reduces MERS-Coronavirus infection” (2019).

Target: ATG14 (African green monkey (endogenous in VeroB4; species of the cell line from memory))
Test: cross-linking

ATG14 (natural protein)
stoichiometry N: 7 and 8

Several values for one entry are separate records, joined by “and”; a condition that tells them apart may be missing. Equal values may be shown once.
